Experimental data published in paper PMC10030959.

Target: SARS-CoV-2 full-length trimeric spike protein B.1 (B.1.126) (SARS-CoV-2) (UniProt P0DTC2)
Experiment: ELISA

REGN 10933
EC50: 4 pM
IC50: 1.1 nM
